# Data reported in US20240374736A1, “INHALED LIQUID FOR THE TREATMENT OF RESPIRATORY INFECTIONS IN HUMANS CAUSED BY PATHOGENS RESISTANT TO ANTIBIOTICS” (priority 2023, published 2024).
# Test system: humans
# Test: Clinical pilot study of side effects on 80 humans (inhalation)
# Conditions: blood before the test, on 4th and 8th day
compound,measurement,value
"C=CCc1ccc(O)c(OC)c1.CCN(CC)CC(=O)Nc1c(C)cccc1C [novel compound, N-[N′-(carboxymethylenyl-2,6-dimethyl-aniline)-N,N-diethylammonium]-[2′-methoxy-4′-(2′-propenyl)]-phenolate]",liver function biochemical analysis from blood samples,no negative clinical or acute effects on the hepatic function
